Experimental data taken from PubChem BioAssay AID1626 (SRMLSC, 2009).
pIC50: −log10 of the molar value.

Tested on: M. tuberculosis H37Rv growth inhibition
Test: M. tuberculosis H37Rv growth inhibitors, H37Rv strain (AID 1626)
Conditions: for IC90: measured here: IC90 against H37Rv; for CC50: measured here: Vero cell cytotoxicity

Compound | IC90 [µM] | CC50 [µM] | pIC50
O=[N+]([O-])c1cc([N+](=O)[O-])c(-c2ccn[nH]2)s1 | 3.26 | 38.9 | –
C[N+]1=C2C=CC=CC=C2SC12C([N+](=O)[O-])=CC([N+](=O)[O-])=C[C-]2[N+](=O)[O-] (configuration not stated) | > 100 | 18.7 | 4.78
Cc1ccc(NCCc2c([N+](=O)[O-])cc([N+](=O)[O-])cc2[N+](=O)[O-])cc1 | 3.46 | 29.3 | –
